Measured values from several laboratories, pooled; numbers as filed in NIAID ChemDB.

All rows: growth or infection tests; organism: Aspergillus niger

Rows are shuffled and stem from different studies. ECn is the concentration giving n% inhibition of infection, replication or growth. Zones are inhibition diameters on agar. Percent inhibition refers to the dose given; in toxicity tests it is the harm to the cells. Blank or dashed fields: not listed here. MIC50, MIC90 and the like: level of inhibition, or share of isolates inhibited.

structure,read by,tested at,strain or isolate,endpoint,value
Cc1ccc2nc(Cl)c(C3SC(=Cc4ccccc4[N+](=O)[O-])C(=O)N3n3c(-c4ccc(Cl)cc4)nc4ccccc4c3=O)cc2c1,broth dilution / visual reading,-,-,MIC99,500 µg/mL
CS(=O)(=O)C1=NC(c2cccc3cc4ccccc4cc23)C(C#N)=C(N)N1,agar diffusion,50 µg/mL,MTCC 282,zone,19 mm
CC(C)N1CCN(c2nc3ccc4c(ccc(=O)n4C)c3s2)CC1,-,-,MTCC 282,MIC100,100 µg/mL
O=C1OCC(c2cccs2)=C1c1ccc(OCC(O)(Cn2cncn2)c2ccc(F)cc2F)cc1,broth dilution,-,ATCC 16404,MIC50,8 µg/mL
Cc1nc(NC(=O)c2ccc(F)cc2)sc1C(=O)N/N=C1/S/C(=C/c2ccccc2O)C(=O)N1c1ccccc1,-,-,MTCC 282,MIC50,50 µg/mL
O=C(NN=Cc1ccc([N+](=O)[O-])cc1)c1snnc1C(F)(F)F,agar diffusion / agar,100 µg/mL,MTCC 1344,zone,0 mm
c1ccc(CO/N=C2\c3ccccc3OCC2n2cncn2)cc1,-,-,ATCC 16401,MFC,16 µg/mL
O=C(NN=Cc1ccc(O)cc1)c1snnc1C(F)(F)F,agar diffusion / agar,100 µg/mL,MTCC 1344,zone,0 mm
O=C(CSc1nc2ccccc2[nH]1)c1c([O-])on[n+]1-c1ccc(Cl)cc1,agar diffusion,-,-,EC50,>20 µg/mL
O=c1ccc2c(ccc3nc(N4CCN(c5ccccc5)CC4)sc32)o1,-,-,MTCC 282,MIC100,500 µg/mL
Cc1nc(NC(=O)c2ccc(F)cc2)sc1C(=O)N/N=C1/S/C(=C/c2ccc(F)cc2)C(=O)N1c1ccccc1,-,-,MTCC 282,MIC50,250 µg/mL
C[C@H]1[C@H](O)[C@@H](C)/C=C/C=C/C=C/C=C/C=C/C=C/C=C/[C@H](O[C@@H]2O[C@H](C)[C@@H](O)[C@H](N)[C@@H]2O)C[C@@H]2O[C@](O)(C[C@@H](O)C[C@@H](O)CC[C@H](O)[C@@H](O)C[C@@H](O)CC(=O)O[C@H]1C)C[C@H](O)[C@H]2C(=O)O,broth dilution / resazurin,-,ATCC 16404,MIC,0.98 µg/mL
Cc1ccccc1/C=C1/S/C(=N/NC(=O)c2sc(NC(=O)c3ccc(F)cc3)nc2C)N(c2ccccc2)C1=O,-,-,MTCC 282,MIC50,25 µg/mL
COc1cc(C=C2SC(c3cc4cc(C)ccc4nc3Cl)N(n3c(-c4ccc(Cl)cc4)nc4ccccc4c3=O)C2=O)cc(OC)c1OC,broth dilution / visual reading,-,-,MIC99,100 µg/mL
Cc1nc(NC(=O)c2ccc(F)cc2)sc1C(=O)N/N=C1/S/C(=C/c2ccccc2[N+](=O)[O-])C(=O)N1c1ccccc1,-,-,MTCC 282,MIC50,1000 µg/mL
O=C(NN=Cc1cccs1)c1snnc1C(F)(F)F,agar diffusion / agar,100 µg/mL,MTCC 1344,zone,0 mm
CC1CC(C)CN(c2nc3ccc4c(ccc(=O)n4C)c3s2)C1,-,-,MTCC 282,MIC100,62.5 µg/mL
O=C(CSc1nc2ccccc2[nH]1)c1c([O-])on[n+]1-c1cccc(Cl)c1,agar diffusion,-,-,EC50,>20 µg/mL
Clc1ccc(CO/N=C2\c3ccccc3OCC2n2cncn2)cc1Cl,-,-,ATCC 16401,MFC,16 µg/mL
Cc1ccc(-[n+]2noc([O-])c2C(=O)CSc2nc3ccccc3[nH]2)cc1,agar diffusion,-,-,EC50,>20 µg/mL
COc1ccc(C=C2SC(c3cc4cc(C)ccc4nc3Cl)N(n3c(-c4ccc(Cl)cc4)nc4ccccc4c3=O)C2=O)cc1,broth dilution / visual reading,-,-,MIC99,500 µg/mL
Clc1ccc2c(c1)OCC(n1cncn1)/C2=N\OCc1ccc(Cl)c(Cl)c1,-,-,ATCC 16401,MFC,64 µg/mL
CSC1=NC(c2ccc(Cl)cc2)C(C#N)=C(N)N1,agar diffusion,100 µg/mL,MTCC 282,zone,17 mm
O=C(CSc1nc2ccccc2[nH]1)c1c([O-])on[n+]1-c1ccc(Br)cc1,agar diffusion,-,-,EC50,>20 µg/mL
Cc1cc(C=Nc2ccc(N=Cc3cc(C)cc(/C=N/Nc4nc5ccccc5s4)c3O)cc2)c(O)c(/C=C/Nc2nc3ccccc3s2)c1,turbidity,100 µg/mL,-,inhibition,50.94%
Cn1c(=O)ccc2c3sc(N4CCN(c5ccccc5F)CC4)nc3ccc21,-,-,MTCC 282,MIC100,100 µg/mL
CC(=O)N1CCN(c2ccc(OC[C@H]3CO[C@](Cn4ccnc4)(c4ccc(Cl)cc4Cl)O3)cc2)CC1,-,-,Species complex,MIC50,1 µg/mL
Cc1ccc2nc(Cl)c(C3SC(=Cc4ccccc4O)C(=O)N3n3c(-c4ccc(Cl)cc4)nc4ccccc4c3=O)cc2c1,broth dilution / visual reading,-,-,MIC99,100 µg/mL
C[C@H]1[C@H](O)[C@@H](C)/C=C/C=C/C=C/C=C/C=C/C=C/C=C/[C@H](O[C@@H]2O[C@H](C)[C@@H](O)[C@H](N)[C@@H]2O)C[C@@H]2O[C@](O)(C[C@@H](O)C[C@@H](O)CC[C@H](O)[C@@H](O)C[C@@H](O)CC(=O)O[C@H]1C)C[C@H](O)[C@H]2C(=O)O,broth dilution / absorbance,-,Clinical isolate,MIC99,0.39 µM
CCCCCOc1ccc(-c2cc(-c3ccc(C(=O)N[C@H]4C[C@@H](O)[C@@H](O)NC(=O)[C@@H]5[C@@H](O)[C@@H](C)CN5C(=O)[C@H]([C@H](O)CC(N)=O)NC(=O)[C@H]([C@H](O)[C@@H](O)c5ccc(O)c(OS(=O)(=O)O)c5)NC(=O)[C@@H]5C[C@@H](O)CN5C(=O)[C@H]([C@@H](C)O)NC4=O)cc3)no2)cc1,broth dilution,-,-,MIC50,0.016 µg/mL
O=C(NN=C1CCCC1)c1snnc1C(F)(F)F,agar diffusion / agar,150 µg/mL,MTCC 1344,zone,0 mm
C/C(=N\NC(=S)Nc1cccc([N+](=O)[O-])c1)c1c(O)ccc2c(C)cc(=O)oc12,agar diffusion / agar,25 µg/mL,-,inhibition,56.66%
C[C@H]1[C@H](O)[C@@H](C)/C=C/C=C/C=C/C=C/C=C/C=C/C=C/[C@H](O[C@@H]2O[C@H](C)[C@@H](O)[C@H](N)[C@@H]2O)C[C@@H]2O[C@](O)(C[C@@H](O)C[C@@H](O)CC[C@H](O)[C@@H](O)C[C@@H](O)CC(=O)O[C@H]1C)C[C@H](O)[C@H]2C(=O)O,agar diffusion,-,As1,MIC,45 µg/mL
Clc1ccc(CO/N=C2/c3ccccc3OCC2n2cnnc2)c(Cl)c1,-,-,ATCC 16401,MFC,64 µg/mL
Cc1nc(NC(=O)c2ccc(F)cc2)sc1C(=O)N/N=C1/S/C(=C/c2cccc(O)c2)C(=O)N1c1ccccc1,-,-,MTCC 282,MIC50,50 µg/mL
Clc1ccc(CO/N=C2/c3ccc(Cl)cc3OCC2n2cncn2)cc1,-,-,ATCC 16401,MFC,64 µg/mL
Cc1ccc(-[n+]2noc([O-])c2C(=O)CSc2nc3ccccc3[nH]2)cc1Cl,agar diffusion,-,-,EC50,>20 µg/mL
CS(=O)(=O)c1nc(N)c(C#N)c(-c2ccccc2)n1,agar diffusion,100 µg/mL,MTCC 282,zone,21 mm
CC1(O)OC(=O)C(c2ccc(OCC(O)(Cn3cncn3)c3ccc(F)cc3F)cc2)=C1c1ccc(F)cc1F,broth dilution,-,ATCC 16404,MIC50,16 µg/mL
O=C(NN=Cc1ccc(Cl)cc1)c1snnc1C(F)(F)F,agar diffusion / agar,100 µg/mL,MTCC 1344,zone,0 mm
Clc1ccc2c(c1)OCC(n1cnnc1)/C2=N\OCc1ccccc1,-,-,ATCC 16401,MFC,>64 µg/mL
CSC1=NC(c2ccccc2O)C(C#N)=C(N)N1,agar diffusion,100 µg/mL,MTCC 282,zone,16 mm
CC(=NNC(=O)c1snnc1C(F)(F)F)c1ccccc1,agar diffusion / agar,100 µg/mL,MTCC 1344,zone,0 mm
O=C1OCC(c2ccccc2)=C1c1ccc(OCC(O)(Cn2cncn2)c2ccc(F)cc2F)cc1,broth dilution,-,ATCC 16404,MIC50,4 µg/mL
C=CCSS(=O)CC=C,broth dilution,-,ATCC 16888,MIC90,500 µg/mL
Cc1ccc(C2=C(c3ccc(OCC(O)(Cn4cncn4)c4ccc(F)cc4F)cc3)C(=O)OC2)cc1,broth dilution,-,ATCC 16404,MIC50,4 µg/mL
COc1ccc(-[n+]2noc([O-])c2C(=O)CSc2nc3ccccc3[nH]2)cc1,agar diffusion,-,-,EC50,>20 µg/mL

6 of the rows above, restated:

{"structure": "CC(=O)N1CCN(c2ccc(OC[C@H]3CO[C@](Cn4ccnc4)(c4ccc(Cl)cc4Cl)O3)cc2)CC1", "strain or isolate": "Species complex", "endpoint": "MIC50", "value": "1 µg/mL"}
{"structure": "C/C(=N\\NC(=S)Nc1cccc([N+](=O)[O-])c1)c1c(O)ccc2c(C)cc(=O)oc12", "read by": "agar diffusion / agar", "tested at": "25 µg/mL", "endpoint": "inhibition", "value": "56.66%"}
{"structure": "CC1(O)OC(=O)C(c2ccc(OCC(O)(Cn3cncn3)c3ccc(F)cc3F)cc2)=C1c1ccc(F)cc1F", "read by": "broth dilution", "strain or isolate": "ATCC 16404", "endpoint": "MIC50", "value": "16 µg/mL"}
{"structure": "O=c1ccc2c(ccc3nc(N4CCN(c5ccccc5)CC4)sc32)o1", "strain or isolate": "MTCC 282", "endpoint": "MIC100", "value": "500 µg/mL"}
{"structure": "CCCCCOc1ccc(-c2cc(-c3ccc(C(=O)N[C@H]4C[C@@H](O)[C@@H](O)NC(=O)[C@@H]5[C@@H](O)[C@@H](C)CN5C(=O)[C@H]([C@H](O)CC(N)=O)NC(=O)[C@H]([C@H](O)[C@@H](O)c5ccc(O)c(OS(=O)(=O)O)c5)NC(=O)[C@@H]5C[C@@H](O)CN5C(=O)[C@H]([C@@H](C)O)NC4=O)cc3)no2)cc1", "read by": "broth dilution", "endpoint": "MIC50", "value": "0.016 µg/mL"}
{"structure": "Clc1ccc(CO/N=C2/c3ccc(Cl)cc3OCC2n2cncn2)cc1", "strain or isolate": "ATCC 16401", "endpoint": "MFC", "value": "64 µg/mL"}